This assay is described as follows: Ratio of IC50 for PlsY in Staphylococcus aureus RN4220 harboring gpsA mutant to IC50 for Bacillus anthracis PlsY1.

The record followed here is ChEMBL document CHEMBL2086264.

Structures are written as SMILES.

As to `O=C(CCCCCCCc1ccccc1)NS(=O)(=O)Oc1ccccc1`, the Ratio IC50 came out at 2.
